Measured values from several laboratories, pooled; numbers as filed in NIAID ChemDB.

Common to all: whole-cell or culture tests; organism: Cryptococcus neoformans

A number after MIC or MFC names an inhibition level or a share of isolates. Rows are shuffled and stem from different studies. An empty or dashed field is not shown.

| structure | strain or isolate | method | read-out | result |
|---|---|---|---|---|
| CC[C@@H]([C@H](C)O)n1ncn(-c2ccc(N3CCN(c4ccc(OC[C@@H]5CO[C@@](Cn6cncn6)(c6ccc(F)cc6F)C5)cc4)CC3)cc2)c1=O | H99 |  | MIC | 0.063 µg/mL |
| Oc1ccc(O)c(C=Nc2ccccc2O)c1 | 28JF | broth dilution | MIC | 11.3 µg/mL |
| COc1ccc(/C=C2\COc3ccc(-c4ccccc4)cc3C2=O)cc1 | Farwania |  | MIC | 25 µg/mL |
| Oc1ccccc1N=Cc1ccc2c(c1)OCO2 | ATCC 62066 | broth dilution | MIC | 2.8 µg/mL |
| Cn1nc(Cc2ccc(Cl)cc2)c2ccccc2c1=O | Clinical isolate (IM 031633) | broth dilution | MIC | 15.6 µg/mL |
| COC1CC2CCC(C)C(O)(O2)C(=O)C(=O)N2CCCCC2C(=O)OC(C(C)CC2CCC(O)C(OC)C2)CC(=O)C(C)/C=C(\C)C(O)C(OC)C(=O)C(C)C[C@](C)(N(O)C(=O)NN2CCCCC2)/C=C/C=C/C=C/1C | FRR1 |  | MIC | >100 µg/mL |
| O=C1/C(=C/c2ccc3ccccc3c2)CSc2ccccc21 | Farwania |  | MIC | 12.5 µg/mL |
| CN[C@H]1CC[C@@H](c2ccc(Cl)c(Cl)c2)c2ccccc21 | UA 491 | broth dilution | MIC90 | 4 µg/mL |
| C[C@@H]([C@@](O)(Cn1cncn1)c1ccc(F)cc1F)S(C)(=O)=O | R715 (AZOLE-R) |  | MIC | >1000 µM |
| C[C@@H]1[C@H](O)[C@@H](C)/C=C/C=C/C=C/C=C/C=C/C=C/C=C/[C@H](O[C@@H]2O[C@H](C)[C@@H](O)[C@H](N)[C@@H]2O)C[C@@H]2O[C@](O)(C[C@@H](O)C[C@@H](O)[C@H](O)CC[C@@H](O)C[C@@H](O)CC(=O)O[C@H]1C)C[C@H](O)[C@H]2C(=O)O | Clinical isolate (IM 972724) | broth dilution | MIC | 0.06 µg/mL |
| C[C@@H](c1ncncc1F)[C@](O)(Cn1cncn1)c1ccc(F)cc1F | CBS 131 | broth dilution | MIC | 0.125 µg/mL |
| C[C@@H](n1cnc2cc(Cl)ccc2c1=O)[C@](O)(Cn1cncn1)c1ccc(F)cc1F | Isolate 114.95 |  | MFC | 0.078 µg/mL |
| COC1CC2CCC(C)C(O)(O2)C(O)C(O)N2CCCCC2C(=O)OC(C(C)CC2CCC(O)C(OC)C2)CC(=O)C(C)/C=C(\C)C(O)C(OC)C(=O)C(C)CC(C)/C=C/C=C/C=C/1C | TOR1-1 |  | MFC | >100 µg/mL |
| O=C1/C(=C/c2ccc3ccccc3c2)CSc2ccc(Cl)cc21 | Farwania |  | MIC | 12.5 µg/mL |
| CCOC(=O)c1c(C)nc(NCCCCNc2ccnc3cc(Cl)ccc23)nc1-c1ccccc1[N+](=O)[O-] | WP |  | MIC99 | 5.7 µg/mL |
| O=C1/C(=C/c2ccc3c(c2)OCO3)COc2ccc(-c3ccccc3)cc21 | 25 |  | MIC | 100 µg/mL |
| CCOC(=O)c1cnc(NCCCCNc2ccnc3cc(Cl)ccc23)nc1C | ATCC 24067 |  | MIC | 5.7 µg/mL |
| COc1ccc(/C=C2\CSc3ccc(Cl)cc3C2=O)cc1OC | 93/V |  | MIC | 12.5 µg/mL |
| Oc1ccccc1N=Cc1ccc(O)c(O)c1O | ATCC 24067 |  | MIC99 | 11.3 µg/mL |
| O=C1/C(=C/c2ccccc2)CCc2ccccc21 | Farwania |  | MIC | 25 µg/mL |
| Oc1ccccc1N=Cc1ccc(F)cc1 | 27JF |  | MIC99 | 16 µg/mL |
| C[C@@H](n1ncn(-c2ccc(OCC(F)(F)C(F)F)cc2)c1=O)[C@](O)(Cn1cncn1)c1ccc(F)cc1F | DUMC 119.95 |  | MIC | ≤0.0313 µg/mL |
| CCOC(=O)c1c(C)nc(NCCCCNc2ccnc3cc(Cl)ccc23)nc1-c1ccc(F)cc1 | WP |  | MIC99 | 8 µg/mL |
| COc1ccc(/C=C2\COc3ccc(SC)cc3C2=O)cc1 | 25 |  | MIC | 25 µg/mL |
| O=[N+]([O-])c1ccc(C=Nc2ccccc2O)cc1 | F-10 | broth dilution | MIC | 11.3 µg/mL |
| CCC(C)n1ncn(-c2ccc(N3CCN(c4ccc(OC[C@H]5CO[C@](Cn6cncn6)(c6ccc(Cl)cc6Cl)O5)cc4)CC3)cc2)c1=O | A26037 |  | MIC | 0.008 µg/mL |

The first 3 rows once more:

structure	strain or isolate	method	read-out	result
CC[C@@H]([C@H](C)O)n1ncn(-c2ccc(N3CCN(c4ccc(OC[C@@H]5CO[C@@](Cn6cncn6)(c6ccc(F)cc6F)C5)cc4)CC3)cc2)c1=O	H99		MIC	0.063 µg/mL
Oc1ccc(O)c(C=Nc2ccccc2O)c1	28JF	broth dilution	MIC	11.3 µg/mL
COc1ccc(/C=C2\COc3ccc(-c4ccccc4)cc3C2=O)cc1	Farwania		MIC	25 µg/mL